Patent US5780433A (priority 1996, dated 1998)

Test system: nicotine-stimulated [3H]-dopamine release from rat striatal synaptosomes
Assay: nicotine-stimulated [3H]-dopamine release, synaptosomal superfusion assay
Type: cell-based
Conditions: 3 μM nicotine, antagonist concentration not stated

**Q.** For α-conotoxin MI, which “block of nicotine-stimulated dopamine release (words)” value is on record?
**A.** The value was “do not block”.

**Q.** And the “block of nicotine-stimulated dopamine release (words)” value (listed as α-Conotoxin MI)?
**A.** Its value is “no effect”.
